## Potato spindle tuber viroid, loop 15: variant abundance in plants

Values reported by Wu et al. 2024 (doi:10.1371/journal.ppat.1012142).

Region: loop 15 of PSTVd (intermediate strain), upper and lower strand joined, each 5' to 3', the first 7 letters being the upper strand, closing pairs included. Wild type: GGAAACCGCUACUAC. Varied positions (N): GGAAACCGNNNNNNC.

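A pool of all variants was put on leaves of three Nicotiana benthamiana plants. Samples came from the inoculated region at 5 days, the leaf margin at 10 and upper systemic leaves at 12.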

Numbers give reads per thousand; 0 = not seen among the reads, higher = more abundant. Each site shows the three plants. "Pool" is the share in the plasmid pool used as inoculum, on the same scale. The inoculated region was read from the minus strand, the other sites from the plus strand.

| sequence | pool | inoculated region | leaf margin | systemic leaves |
|---|---|---|---|---|
| GGAAACCGCUGUAAC | 0.192 | 0.0655 / 0.0482 / 0.133 | 0 / 0.0223 / 0.0200 | 0 / 0 / 0 |
| GGAAACCGGUGAGGC | 0.288 | 0.0328 / 0.129 / 0.0381 | 0 / 0 / 0.0200 | 0 / 0 / 0 |
| GGAAACCGUUAGCCC | 0.128 | 0.0983 / 0.0803 / 0.133 | 0 / 0.0223 / 0.0200 | 0 / 0 / 0 |
| GGAAACCGGGUUAGC | 0.320 | 0.0819 / 0.129 / 0.0762 | 0 / 0 / 0.0401 | 0 / 0 / 0 |
| GGAAACCGGACUUUC | 0.160 | 0.0983 / 0.0482 / 0.0762 | 0.0323 / 0 / 0 | 0 / 0 / 0 |
| GGAAACCGACAACCC | 0.256 | 0.0328 / 0.0964 / 0.133 | 0.0162 / 0 / 0 | 0 / 0 / 0 |
| GGAAACCGAAGCUCC | 0.336 | 0.0491 / 0.0964 / 0.0762 | 0.0485 / 0 / 0 | 0 / 0 / 0 |
| GGAAACCGUCAUUCC | 0.224 | 0.360 / 0.386 / 0.324 | 0.146 / 0.0223 / 0.0601 | 0.0966 / 0.0908 / 0.0456 |
| GGAAACCGUCUUCUC | 0.192 | 0.164 / 0.193 / 0.228 | 0.0323 / 0.0223 / 0 | 0.0322 / 0 / 0 |
| GGAAACCGAGGGUGC | 0.112 | 0.0819 / 0.0964 / 0.0952 | 0.0485 / 0.0223 / 0 | 0 / 0 / 0 |
| GGAAACCGGAAGUUC | 0.208 | 0.377 / 0.386 / 0.324 | 0.0970 / 0.0445 / 0.100 | 0.0322 / 0.0756 / 0.137 |
| GGAAACCGCUCGACC | 0.208 | 0.0983 / 0.0643 / 0.0381 | 0 / 0 / 0 | 0 / 0 / 0 |
| GGAAACCGGACUUGC | 0.208 | 0.0491 / 0.0803 / 0.0381 | 0.0162 / 0 / 0.0200 | 0 / 0 / 0 |
| GGAAACCGCUUGUGC | 0.224 | 0.360 / 0.273 / 0.438 | 0.0647 / 0.0891 / 0.0601 | 0.0322 / 0 / 0 |
| GGAAACCGCAUACAC | 0.320 | 0.0983 / 0.0643 / 0.114 | 0 / 0 / 0.0200 | 0 / 0 / 0 |
| GGAAACCGCGUUGGC | 0.320 | 0.164 / 0.0964 / 0.0762 | 0 / 0 / 0.0200 | 0 / 0 / 0 |
| GGAAACCGGGGCAGC | 0.272 | 0.131 / 0.129 / 0.114 | 0 / 0 / 0.0401 | 0 / 0 / 0 |
| GGAAACCGAAACAGC | 0.176 | 0.0983 / 0.0964 / 0.114 | 0 / 0 / 0.0601 | 0 / 0 / 0 |
| GGAAACCGAAGACUC | 0.176 | 0.147 / 0.0482 / 0.0762 | 0 / 0 / 0.0200 | 0 / 0 / 0 |
| GGAAACCGGCGCUCC | 0.272 | 0.115 / 0.0964 / 0.114 | 0 / 0 / 0 | 0 / 0 / 0 |
| GGAAACCGUGCCCGC | 0.272 | 0.0655 / 0.0321 / 0.0952 | 0.0162 / 0.0223 / 0 | 0 / 0 / 0 |
| GGAAACCGGUUCACC | 0.176 | 0.147 / 0.0964 / 0.0952 | 0.0323 / 0 / 0.0200 | 0 / 0 / 0.0228 |
| GGAAACCGUUAUCUC | 0.288 | 0.426 / 0.321 / 0.248 | 0.162 / 0.0668 / 0.0801 | 0.0161 / 0.106 / 0.0684 |
| GGAAACCGUCAGUUC | 0.176 | 0.229 / 0.241 / 0.419 | 0.0808 / 0.0891 / 0.120 | 0.0322 / 0.0605 / 0.0684 |
| GGAAACCGGCCUGCC | 0.176 | 0.0983 / 0.0803 / 0.133 | 0.0162 / 0 / 0.0200 | 0 / 0 / 0.0228 |
| GGAAACCGAAAACAC | 0.160 | 0.229 / 0.209 / 0.457 | 0.162 / 0.111 / 0.240 | 0.0644 / 0.0151 / 0.182 |
| GGAAACCGCGCAACC | 0.256 | 0.0655 / 0.0643 / 0.0571 | 0 / 0 / 0.0200 | 0.0161 / 0 / 0 |
| GGAAACCGCUGCUAC | 0.352 | 0.442 / 0.321 / 0.666 | 0.275 / 0.334 / 0.301 | 0.0966 / 0.0756 / 0 |
| GGAAACCGGUUCAGC | 0.272 | 0.164 / 0.0803 / 0.152 | 0.0162 / 0 / 0 | 0 / 0 / 0 |
| GGAAACCGUUCAGUC | 0.176 | 0.0655 / 0.177 / 0.0190 | 0.0162 / 0 / 0.0401 | 0 / 0 / 0 |
| GGAAACCGUGGGAGC | 0.224 | 0.115 / 0.161 / 0.0762 | 0 / 0.0223 / 0 | 0 / 0 / 0 |
| GGAAACCGACCGCUC | 0.144 | 0.131 / 0.161 / 0.171 | 0.0162 / 0.0223 / 0 | 0 / 0 / 0 |
| GGAAACCGGGCUCUC | 0.160 | 0.115 / 0.0803 / 0.0381 | 0 / 0 / 0 | 0 / 0 / 0 |
| GGAAACCGGUUUUUC | 0.208 | 0.0491 / 0.0964 / 0.0952 | 0 / 0 / 0.0401 | 0.0161 / 0 / 0 |
| GGAAACCGGUAAGCC | 0.208 | 0.0819 / 0.209 / 0.0571 | 0 / 0 / 0 | 0 / 0 / 0 |
| GGAAACCGCGAGACC | 0.192 | 0.131 / 0.0643 / 0.0762 | 0 / 0 / 0.0200 | 0 / 0 / 0 |
| GGAAACCGCAUAUAC | 0.320 | 0.246 / 0.369 / 0.267 | 0.0647 / 0.0445 / 0.0601 | 0.0322 / 0 / 0 |
| GGAAACCGUAUGUUC | 0.288 | 0.311 / 0.225 / 0.305 | 0.0647 / 0.134 / 0.160 | 0.0483 / 0.0454 / 0.137 |
| GGAAACCGAUCCCUC | 0.240 | 0.180 / 0.0643 / 0.0952 | 0 / 0 / 0 | 0 / 0 / 0 |
| GGAAACCGAGCCCAC | 0.224 | 0.147 / 0.145 / 0.190 | 0 / 0 / 0.0200 | 0 / 0 / 0 |
| GGAAACCGCCUGCAC | 0.224 | 0.0983 / 0.0482 / 0.152 | 0 / 0 / 0.0200 | 0 / 0 / 0 |
| GGAAACCGGUCCUGC | 0.352 | 0.0983 / 0.0964 / 0.0952 | 0 / 0.0223 / 0.0200 | 0 / 0 / 0 |

Extract of 4 entries:

sequence	pool	inoculated region	leaf margin	systemic leaves
GGAAACCGUUCAGUC	0.176	0.0655 / 0.177 / 0.0190	0.0162 / 0 / 0.0401	0 / 0 / 0
GGAAACCGGUUUUUC	0.208	0.0491 / 0.0964 / 0.0952	0 / 0 / 0.0401	0.0161 / 0 / 0
GGAAACCGGUUCAGC	0.272	0.164 / 0.0803 / 0.152	0.0162 / 0 / 0	0 / 0 / 0
GGAAACCGUAUGUUC	0.288	0.311 / 0.225 / 0.305	0.0647 / 0.134 / 0.160	0.0483 / 0.0454 / 0.137

Wild type was 33.9 per thousand in the pool and the most common sequence in every sample (inoculated region 202, 200, 159; leaf margin 724, 746, 710; systemic leaves 856, 883, 880). With 43,870-66,106 reads a sample, very low values are single reads. Sequences that differ at fixed positions probably stem from PCR or sequencing errors, and defective variants can be carried along by functional ones.